# Results taken from patent US20050244430.
# Molecular target: T1, Flag-TRAF2, not stated, Q12933 1-501
# T1 sequence: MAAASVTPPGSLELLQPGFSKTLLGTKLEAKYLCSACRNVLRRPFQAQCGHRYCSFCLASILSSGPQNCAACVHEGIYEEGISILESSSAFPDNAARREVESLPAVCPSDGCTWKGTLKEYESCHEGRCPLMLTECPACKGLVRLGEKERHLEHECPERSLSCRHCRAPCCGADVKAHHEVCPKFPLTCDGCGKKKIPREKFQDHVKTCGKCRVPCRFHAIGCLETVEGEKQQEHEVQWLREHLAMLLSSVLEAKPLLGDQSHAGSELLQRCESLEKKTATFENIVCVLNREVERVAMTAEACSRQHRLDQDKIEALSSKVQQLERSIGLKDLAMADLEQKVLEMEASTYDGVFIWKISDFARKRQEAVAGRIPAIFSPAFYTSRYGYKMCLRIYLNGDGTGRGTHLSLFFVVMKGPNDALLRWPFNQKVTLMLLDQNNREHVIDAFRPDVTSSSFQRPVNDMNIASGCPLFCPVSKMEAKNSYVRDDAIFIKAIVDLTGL
# Experiment: co-immunoprecipitation from 293T lysates
substance,measurement,value
vaccinia virus A52R protein,result,no binding
